Results of unrelated studies side by side (data: NIAID ChemDB).

Shared fields: host cell toxicity; cells: H9; read-out: CC50

CCn: concentration that lowers growth or viability of the cells by n%.

smiles | method | value
CC(C)[C@H](Cc1ccccc1)NC(=O)C[C@@H]1O[C@@H]1[C@H](Cc1ccccc1)NC(=O)[C@@H](NC(=O)OCc1ccccn1)C(C)(C)S(C)(=O)=O |  | >100 µM
CC(C)[C@@H]1CC[C@]2(COC(=O)CCCC(=O)O)CC[C@]3(C)[C@H](CC[C@@H]4[C@@]5(C)CC[C@H](OC(=O)CCCC(=O)O)C(C)(C)[C@@H]5CC[C@]43C)[C@@H]12 |  | 26.3 µM
Cc1c(CO)c(=O)oc2c3c(ccc12)OC(C)(C)[C@H](OC(=O)C12CCC(C)(C(=O)O1)C2(C)C)[C@@H]3OC(=O)C12CCC(C)(C(=O)O1)C2(C)C | XTT | 24.9 µM
Oc1cc(O)c2c(c1)O[C@H](c1ccc(O)c(O)c1)[C@H](O)[C@H]2c1c(O)cc(O)c2c1O[C@H](c1ccc(O)c(O)c1)[C@H](O)C2 |  | >25 µM
CC(C)C(NC(=O)C[C@@H]1O[C@@H]1[C@H](Cc1ccccc1)NC(=O)[C@@H](NC(=O)OCc1ccccn1)C(C)(C)S(C)(=O)=O)C(C)C |  | >100 µM
C[C@H](CCC(=O)N[C@@H](Cc1cc(I)c(O)cc1I)C(=O)O)[C@H]1CC[C@H]2[C@@H]3CCC4C[C@H](O)CC[C@]4(C)[C@H]3C[C@H](O)[C@]12C |  | >500 µg/mL
Oc1cc(O)c2c(c1)O[C@@]1(c3ccc(O)c(O)c3)Oc3cc(O)c4c(c3[C@@H]2[C@H]1O)O[C@H](c1ccc(O)c(O)c1)[C@H](O)[C@H]4c1c(O)cc(O)c2c1O[C@H](c1ccc(O)c(O)c1)[C@H](O)C2 |  | >25 µM
CC(=O)OCc1cc2ccc3c(c2oc1=O)[C@@H](OC(=O)[C@@]12CC[C@@](C)(C(=O)O1)C2(C)C)[C@@H](OC(=O)[C@@]12CC[C@@](C)(C(=O)O1)C2(C)C)C(C)(C)O3 | XTT | 11.6 µM
C[C@H](CCC(=O)NCC(=O)N[C@@H](Cc1cc(I)c(O)cc1I)C(=O)O)[C@H]1CC[C@H]2[C@@H]3[C@H](O)CC4C[C@H](O)CC[C@]4(C)[C@H]3C[C@H](O)[C@]12C |  | >500 µg/mL
CC1(C)Oc2ccc3cc(CO)c(=O)oc3c2[C@@H](OC(=O)C23CCC(C)(C(=O)O2)C3(C)C)[C@H]1OC(=O)C12CCC(C)(C(=O)O1)C2(C)C | XTT | 23 µM
O=C(OC[C@H]1O[C@@H](OC(=O)c2cc(O)c(O)c(O)c2)[C@H](OC(=O)c2cc(O)c(O)c(O)c2)[C@@H](OC(=O)c2cc(O)c(O)c(O)c2)[C@@H]1OC(=O)c1cc(O)c(O)c(O)c1)c1cc(O)c(O)c(O)c1 |  | 45 µM
CC(C)C(NC(=O)C[C@@H]1O[C@@H]1[C@H](Cc1ccccc1)NC(=O)[C@@H](NC(=O)OCc1ccncc1)C(C)(C)S(C)(=O)=O)C(C)C |  | >100 µM
CC1(C)Oc2ccc3cc(CN)c(=O)oc3c2[C@@H](OC(=O)C23CCC(C)(C(=O)O2)C3(C)C)[C@H]1OC(=O)C12CCC(C)(C(=O)O1)C2(C)C | XTT | >15.4 µM
CC(C)[C@H](Cc1ccccc1)NC(=O)C[C@@H]1O[C@@H]1[C@H](Cc1ccccc1)NC(=O)[C@@H](NC(=O)c1cc(=O)c2ccccc2o1)C(C)(C)S(C)(=O)=O |  | >100 µM
CC(=O)OCc1c(C)c2ccc3c(c2oc1=O)[C@@H](OC(=O)C12CCC(C)(C(=O)O1)C2(C)C)[C@@H](OC(=O)C12CCC(C)(C(=O)O1)C2(C)C)C(C)(C)O3 | XTT | 14.8 µM
CC(C)[C@@H](NC(=O)C[C@@H]1O[C@@H]1[C@H](Cc1ccccc1)NC(=O)[C@@H](NC(=O)OCc1cccnc1)C(C)(C)S(C)(=O)=O)c1ccccc1 |  | >100 µM
O=C(OC[C@H]1O[C@@H](OC(=O)c2cc(O)c(O)c(O)c2)[C@H](O)[C@@H](O)[C@@H]1O)c1cc(O)c(O)c(O)c1 |  | 38 µM
C=C(COC(=O)CC1(CC(=O)O)CCCC1)[C@@H]1CC[C@]2(COC(=O)CC3(CC(=O)O)CCCC3)CC[C@]3(C)[C@H](CC[C@@H]4[C@@]5(C)CC[C@H](OC(=O)CC6(CC(=O)O)CCCC6)C(C)(C)[C@@H]5CC[C@]43C)[C@@H]12 |  | 6.99 µM
COP(=O)(c1cc(C)cc(CCC#N)c1)c1c(C(N)=O)[nH]c2ccc(Cl)c(F)c12 | MTS | 20 µM
Cc1cc(=O)oc2c3c(c(CO)cc12)OC(C)(C)[C@H](OC(=O)[C@@]12CC[C@@](C)(C(=O)O1)C2(C)C)[C@@H]3OC(=O)[C@@]12CC[C@@](C)(C(=O)O1)C2(C)C | XTT | >15 µM
CC(C)C(NC(=O)C[C@@H]1O[C@@H]1[C@H](Cc1ccccc1)NC(=O)[C@@H](NC(=O)CN1CCCC1)C(C)(C)S(C)(=O)=O)C(C)C |  | >100 µM
C=C(COC(C)=O)[C@@H]1CC[C@]2(COC(C)=O)CC[C@]3(C)[C@H](CC[C@@H]4[C@@]5(C)CC[C@H](OC(C)=O)C(C)(C)[C@@H]5CC[C@]43C)[C@@H]12 |  | 25 µM
CC(C)[C@@H](NC(=O)C[C@@H]1O[C@@H]1[C@H](Cc1ccccc1)NC(=O)[C@@H](NC(=O)OCc1ccccc1)C(C)(C)S(C)(=O)=O)c1ccccc1 |  | >100 µM
C=C(C)[C@@H]1CC[C@]2(COC(=O)CCCC(=O)O)CC[C@]3(C)[C@H](CC[C@@H]4[C@@]5(C)CC[C@H](OC(=O)CCCC(=O)O)C(C)(C)[C@@H]5CC[C@]43C)[C@@H]12 |  | 25.8 µM
CC1(C)Oc2ccc3cc(CBr)c(=O)oc3c2[C@@H](OC(=O)C23CCC(C)(C(=O)O2)C3(C)C)[C@H]1OC(=O)C12CCC(C)(C(=O)O1)C2(C)C | XTT | >11.1 µM

The last 2 rows once more:

smiles	method	value
C=C(C)[C@@H]1CC[C@]2(COC(=O)CCCC(=O)O)CC[C@]3(C)[C@H](CC[C@@H]4[C@@]5(C)CC[C@H](OC(=O)CCCC(=O)O)C(C)(C)[C@@H]5CC[C@]43C)[C@@H]12		25.8 µM
CC1(C)Oc2ccc3cc(CBr)c(=O)oc3c2[C@@H](OC(=O)C23CCC(C)(C(=O)O2)C3(C)C)[C@H]1OC(=O)C12CCC(C)(C(=O)O1)C2(C)C	XTT	>11.1 µM

Conditions beyond the fields shown may differ between rows. An empty or dashed field is not shown.